Measured values from several laboratories, pooled; numbers as filed in NIAID ChemDB.

An empty or dashed field is not shown. Inhibition is in % at the dose shown (toxicity tests: loss of growth or viability). Neighbouring rows are from separate reports. ICn: concentration for n% inhibition. MIC bound: limit read from a one-dose screen.

structure,test,agent,strain,protein,method,measure,dose,result
COc1ccc(-c2cncc(N3CCC(c4ccccc4)CC3)n2)cc1OC,target,Cytomegalovirus,-,UL97 kinase,-,IC50,-,<10 µM
O=c1ccc2nc3ccccc3sc-2c1,culture,Mycobacterium tuberculosis,H37Rv,-,BACTEC,MIC bound,-,≤12.5 µg/mL
Cc1cc(N(C)C)ccc1C=O,culture,Mycobacterium tuberculosis,H37Rv,-,-,MIC,-,12.5 µg/mL
CC(=O)c1cccc(-c2cncc(N3CCN(c4ccccc4F)CC3)n2)c1,target,Cytomegalovirus,-,UL97 kinase,-,inhibition,1 µM,<50%
Cl.N=C(N)c1ccc(N)cc1O,culture,Mycobacterium tuberculosis,H37Rv,-,-,MIC,-,>100 µg/mL
Cc1cc(C)cc(-c2cncc(N3CCN(c4cccc(C)c4)C(C)C3)n2)c1,target,Cytomegalovirus,-,UL97 kinase,-,inhibition,10 µM,>15%
CC(=O)Nc1ccc(S(=O)(=O)NNc2nc(N(C)C)nc(N(C)C)n2)cc1,culture,Mycobacterium tuberculosis,H37Rv,-,BACTEC,MIC bound,-,>12.5 µg/mL
Cc1ccccc1-c1cncc(N2CCN(c3ccncc3)CC2)n1,target,Cytomegalovirus,-,UL97 kinase,-,inhibition,10 µM,>15%
CN[C@H]1CC[C@]23C[C@]24CC[C@]2(C)[C@@H]([C@H](C)N(C)C)CC[C@@]2(C)[C@@H]4CC[C@H]3C1(C)C,culture,Mycobacterium tuberculosis,H37Rv,-,BACTEC,MIC bound,-,>12.5 µg/mL
FC(F)(F)c1cccc(N2CCN(c3cncc(-c4cc5ccccc5s4)n3)CC2)c1,target,Cytomegalovirus,-,UL97 kinase,-,inhibition,1 µM,<50%
Oc1cc(-c2ccccc2)c(O)cc1-c1ccccc1,culture,Mycobacterium tuberculosis,H37Rv,-,-,MIC,-,25 µg/mL
Fc1ccc(N2CCCCC2)c(NC(=S)c2ccncc2)c1,host protein,-,-,DYRK2,kinase activity,inhibition,10 µM,46%
OC(c1ccccc1)(c1ccccc1)c1ccccc1,culture,Mycobacterium tuberculosis,H37Rv,-,-,MIC,-,>100 µg/mL
FC(F)(F)c1cccc(N2CCN(c3cncc(-c4ccccc4Oc4ccccc4)n3)CC2)c1,target,Cytomegalovirus,-,UL97 kinase,-,IC50,-,<100 µM
COC(=O)C1CC(c2ccccc2)Nc2cc(C)ccc21,culture,Mycobacterium tuberculosis,H37Rv,-,-,MIC,-,25 µg/mL
COc1ccc(-c2cncc(N3CCN(c4ccncc4)CC3)n2)cc1OC,target,Cytomegalovirus,-,UL97 kinase,-,IC50,-,<1 µM
N#Cc1c2c(c(Nc3ccc(Cl)cc3)n3c1nc1ccccc13)CCCC2,culture,Mycobacterium tuberculosis,H37Rv,-,resazurin,inhibition,6.25 µg/mL,51%
Oc1ccc(-c2cncc(Nc3cccc(C(F)(F)F)c3)n2)cc1,target,Cytomegalovirus,-,UL97 kinase,-,IC50,-,<1 µM
COc1ccc2c(c1OC)C1=NCCc3cc4c(cc3C1(OC)C2=O)OCO4,culture,Mycobacterium tuberculosis,H37Rv,-,BACTEC,inhibition,12.5 µg/mL,30%
CCOC(=O)Nc1ccc([As](=O)(O)O)cc1,culture,Mycobacterium tuberculosis,H37Rv,-,-,MIC,-,>100 µg/mL
CC(C)(C)OC(=O)C1=C2C=C(O)C=CC2(C)N(Cc2ccccc2)C1=N,culture,Mycobacterium tuberculosis,H37Rv,-,resazurin,MIC bound,-,>6.25 µg/mL
O=[N+]([O-])c1cccc(C=NCC(O)CN=Cc2cccc([N+](=O)[O-])c2)c1,culture,Mycobacterium tuberculosis,H37Rv,-,-,MIC,-,100 µg/mL
CCCCCCCC/C=C\CCCCCCCCOCC(O)CO,culture,Mycobacterium tuberculosis,H37Rv,-,BACTEC,MIC,-,64 µg/mL
O=C(CC(=O)c1ccccc1C(=O)c1ccccc1)Nc1ccccc1,culture,Mycobacterium tuberculosis,H37Rv,-,-,MIC,-,>100 µg/mL
COc1cc2cc3c4ccccc4cc[n+]3c(C)c2cc1OC,culture,Mycobacterium tuberculosis,H37Rv,-,BACTEC,MIC bound,-,>12.8 µg/mL
Cc1cccc(-c2cncc(N3CCN(c4ccccn4)CC3)n2)c1,target,Cytomegalovirus,-,UL97 kinase,-,IC50,-,<100 µM
O=C(Cn1cc(F)c(=O)[nH]c1=O)C12CC3CC(CC(C3)C1)C2,culture,Mycobacterium tuberculosis,H37Rv,-,resazurin,inhibition,6.25 µg/mL,4%
CCOC(=O)CCc1ccc(-c2ccccc2)n1-c1ccccc1,culture,Mycobacterium tuberculosis,H37Rv,-,-,MIC,-,>100 µg/mL
COc1c2c(c(CCC(=O)O)c3c1C=CC(C)(C)O3)OC(C)(C)C=C2,culture,Mycobacterium tuberculosis,H37Rv,-,BACTEC,inhibition,12.5 µg/mL,-24%
Nc1ccc(S(N)(=O)=O)cc1,culture,Mycobacterium tuberculosis,H37Rv,-,-,MIC,-,>100 µg/mL

For reference, 4 entries again:

structure	test	agent	strain	protein	method	measure	dose	result
COc1ccc(-c2cncc(N3CCN(c4ccncc4)CC3)n2)cc1OC	target	Cytomegalovirus	-	UL97 kinase	-	IC50	-	<1 µM
COC(=O)C1CC(c2ccccc2)Nc2cc(C)ccc21	culture	Mycobacterium tuberculosis	H37Rv	-	-	MIC	-	25 µg/mL
O=[N+]([O-])c1cccc(C=NCC(O)CN=Cc2cccc([N+](=O)[O-])c2)c1	culture	Mycobacterium tuberculosis	H37Rv	-	-	MIC	-	100 µg/mL
O=C(Cn1cc(F)c(=O)[nH]c1=O)C12CC3CC(CC(C3)C1)C2	culture	Mycobacterium tuberculosis	H37Rv	-	resazurin	inhibition	6.25 µg/mL	4%